Molecular target: trypsin activated wild-type recombinant epsilon toxin (Clostridium perfringens Type D strain NCTC 8346)
Assay: cell-based or functional assay

control sera from lambs which had not been immunised (antibody)
Neutralising antibody (IU/ml) measured using CHO-hMal cells: 0 IU/ml

Source: patent publication US20200405836A1
